# Library screen at single concentrations

Data taken from ChEMBL document CHEMBL3988442, “University of Dundee, Small-Polar-MMV Screening Library” (2021).

Each number is a percent effect as filed. How 0% and 100% were set is not recorded. Most values in the screen are low, and negative values occur. This is part of a subset picked to be rich in strong results.

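Growth of Mycobacterium tuberculosis over 3 days (7H9 medium with glucose and tyloxapol); the read-out is not stated. Tested at 500 µM. Direction is inferred from retests: higher values go with more growth inhibition. Size under these conditions: about 18,000 compounds, about 1,400 of them at 50% or above in at least one test.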

For CCOc1cc(-c2nnn(C)n2)ccc1OC the result was -1.009%. With CC(C)(C)OC(=O)N1CCN(C(CN)C(F)(F)F)CC1 (stereo not shown) the screen gave 30.47%. NCC1CSc2ccccc2O1 (stereo not shown) read 48.53%. O=C(CNc1ccccc1F)N1CCCCC1 gave 72.06%. CN(CCn1cnnc1)c1ccc2ccc(F)cc2n1 read 69.39%. Result for O=C(NCCc1ccccn1)C1CCC1 was 20.35%. O=C1CC(Nc2nc(C3CC3)ns2)CN1C1CC1 (stereo not shown) read 16.3%.

Result for COCCNC(=O)c1cc(-c2ccccc2F)no1 was 79.06%. Result for CCNc1ccnc(C(=O)NCc2ccccc2)c1 was 59.08%. Result for Cc1ccccc1C(=O)N1CCC2(CC1)OCC(C)O2 (stereo not shown) was 43.18%. Result for CC(C)(O)c1nnc(N)o1 was 6.048%. For CCC(CC)NC(=O)Nc1ccn(CCN(C)C)n1 the result was 11.99%. Cc1cc(S(=O)(=O)NC2CCS(=O)(=O)C2)c(C)s1 (stereo not shown) gave 54.29%. Result for NCCCC(=O)Nc1cc(C(F)(F)F)c[nH]c1=O was 13.29%.

Result for CN(CCOc1ccccc1)C(=O)c1cnn(C)c1N was 29.39%. Result for CSCc1nc(CNC(=O)CCc2ccnn2C)cs1 was 13.43%. Result for COCC(C)Nc1ccccc1CN1C(=O)CCC1=O (stereo not shown) was 24.47%. NCC(NS(=O)(=O)CCc1cccs1)C1CC1 (stereo not shown) gave 57.5%. For CC1COCCN1C(=O)NCc1nnc2ccccn12 (stereo not shown) the result was -0.355%. With CC1CCCCN1C(=O)NC1CCC2(CC1)OCCO2 (stereo not shown) the screen gave -2.337%. Clc1cnccc1CN1CCC2(CC1)OCCO2 gave 35.64%.

With CN(CC(N)=O)C(=O)c1csc(-c2ccc(F)cc2)n1 the screen gave -6.58%. For N#Cc1cc(Br)ccc1NCCC(=O)N1CCOCC1 the result was 53.28%. With Cc1cc(C)c(C#N)c(N2CCOCC(CO)C2)n1 (stereo not shown) the screen gave 50.34%. With N#CCC1(O)CN(S(=O)(=O)C=Cc2ccc(Cl)cc2)C1 the screen gave 61.19%. With COc1ccc(S(=O)(=O)N2CC=C(C)CC2)cc1 the screen gave -15.36%. With CNC(=O)NC(=O)C(C)Nc1cccc(C)c1 (stereo not shown) the screen gave 58.02%. With Cc1ccc(NC(=O)CN2CCN(C)CC2)c(Br)c1 the screen gave 0.1307%.

CC(C)C(NC(=O)CCn1cccn1)c1cccnc1 (stereo not shown) read 0.1159%. For CN1CCC(C(=O)NC2CCOCC2)CC1=O (stereo not shown) the result was 7.451%. With Cc1ccc(S(=O)(=O)NC(CN)C2CC2)c(F)c1 (stereo not shown) the screen gave 51.57%. Cc1nc(N)sc1C#N gave 13.45%. CC1(C)Oc2ccc(NC(=O)C3CCOC3)cc2O1 (stereo not shown) read 59.73%. For Cc1cc(C)n(CC(C)NC(=O)c2ccc(N)nc2)n1 (stereo not shown) the result was 21.85%. For CN(Cc1ccco1)C(=O)c1cccc(C#N)c1 the result was 49.76%.

NCC1CSc2ccccc21 (stereo not shown) gave 16.94%. COc1cccc(OCC(=O)NCC2CCCO2)c1 (stereo not shown) gave 63.07%. O=C(Nc1ccc(N2CCOCC2)cc1)C1CCCO1 (stereo not shown) gave -15.08%. Cc1ccc(C(=O)N(CC2CCOC2)C2CC2)c(=O)[nH]1 (stereo not shown) gave 3.121%. For Cc1c[nH]c(C(=O)NC2COc3ccccc3C2)n1 (stereo not shown) the result was 52.64%. CCCC(C(=O)OCC)n1ccc(N)n1 (stereo not shown) read 12.28%. With CCS(=O)(=O)NCCNC(=O)c1ccccc1 the screen gave 25.09%.

For CCCn1nccc1C(=O)N1CCOC[C@@H]1CC the result was 12.3%. For NCc1ccccc1CN1CCCC1CO (stereo not shown) the result was 2.002%. With CCn1c(SCC(=O)NC)nc2ccccc2c1=O the screen gave -0.3346%. CCCN1CCC(NC(=O)NCC(O)C2CC2)CC1 (stereo not shown) read -5.475%. For C1CC(OC2CCOCC2)CCN1 the result was 1.967%.

Some entries from above, unchanged:

Result for CN(Cc1ccco1)C(=O)c1cccc(C#N)c1 was 49.76%.
Result for COCC(C)Nc1ccccc1CN1C(=O)CCC1=O (stereo not shown) was 24.47%.
Result for CCCC(C(=O)OCC)n1ccc(N)n1 (stereo not shown) was 12.28%.
Result for CCS(=O)(=O)NCCNC(=O)c1ccccc1 was 25.09%.